Measurements reported in article PMC3145626.

Legend:
[1] = target: T1, Fur (Escherichia coli K12) (UniProt P0A9A9); assay: EMSA; details: EMSA: 10 mM Tris-borate pH 7.5, 40 mM KCl, 5% glycerol, 1 mM MgCl2, 100 uM MnCl2, 2 mM DTT, 100 ug/ml BSA, 1 ug/ml salmon sperm DNA, 2 nM probe, recombinant protein, label: 32P (alpha-32P dGTP in PCR), probe letters rebuilt from the primers and the genome
T1 sequence (looked up, limits assumed): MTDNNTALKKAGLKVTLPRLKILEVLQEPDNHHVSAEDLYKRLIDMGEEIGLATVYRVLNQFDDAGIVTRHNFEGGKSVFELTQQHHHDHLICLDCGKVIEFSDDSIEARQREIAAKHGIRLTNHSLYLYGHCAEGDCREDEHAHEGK

[2] = target: T1, Fur (Escherichia coli K12); assay: competition with a labelled probe; details: sci1 probe, competitor 1:2 and 1:10, Fur 20 nM; EMSA: 10 mM Tris-borate pH 7.5, 40 mM KCl, 5% glycerol, 1 mM MgCl2, 100 uM MnCl2, 2 mM DTT, 100 ug/ml BSA, 1 ug/ml salmon sperm DNA, 2 nM probe; recombinant protein
[3] = system: RNA polymerase holoenzyme saturated with sigma70 (Esigma70); assay: EMSA; details: no Fur, 0.5-2 units RNAP; EMSA: 10 mM Tris-borate pH 7.5, 40 mM KCl, 5% glycerol, 1 mM MgCl2, 100 uM MnCl2, 2 mM DTT, 100 ug/ml BSA, 1 ug/ml salmon sperm DNA, 2 nM probe; commercial protein; label: 32P (alpha-32P dGTP in PCR); probe letters rebuilt from the primers and the genome

“GGCAACCAGACGGTATACCTGTGGCTGCTGAACACCTCCGGGATGACGGGTTTTATCGCCTGGCTGGGGATTGCCATTAGCCACTATCGCTTCCGTCGCGGTTACGTATTGCAGGGACACGACATTAACGATCTGCCGTACCGTTCAGGTTTCTTCCCACTGGGGCCGATCTTCGCATTCATTCTGTGTCTGATTATCACTTTGGGCCAGAACTACGAAGCGTTCCTGAAAGATACTATTGACTGGGGCGGCGTAGCGGCAACGTATATTGGTATCCCGCTGTTCCTGATTATTTGGTTCGGCTACAAGCTGATTAAAGGAACTCACTTCGTACGCTACAGCGAAATGAAGTTCCCGCAGAACGATAAGAAATAAGTTTCCTCCCTTCCTTGCTAAGCCCTCTCAACCGAGAGGGCTTTTTCAATTCCATTTCCCTGACAAATCATGCGGATATAAAATTTAACATTTGGATTGATAATTGTTATCGTTTGCATTATCGTTACGCCGCAATCAAAAAAGGCTGACAAATCAGAGGCTGTTCCGGCTTTCTGGGATGATCACCTGCATAAAAAATAAGTCCACCGCGATGCTGCCGTACGC (double strand) [cir promoter]”: binds ([1]; metal-dependent, Fur 5 nM).
“TATGCCGGATAATGATAATCATTATCTATGCCG (double strand) [Fur consensus competitor]”: binds [2].
“GGCAACCAGACGGTATACCTGTGGCTGCTGAACACCTCCGGGATGACGGGTTTTATCGCCTGGCTGGGGATTGCCATTAGCCACTATCGCTTCCGTCGCGGTTACGTATTGCAGGGACACGACATTAACGATCTGCCGTACCGTTCAGGTTTCTTCCCACTGGGGCCGATCTTCGCATTCATTCTGTGTCTGATTATCACTTTGGGCCAGAACTACGAAGCGTTCCTGAAAGATACTATTGACTGGGGCGGCGTAGCGGCAACGTATATTGGTATCCCGCTGTTCCTGATTATTTGGTTCGGCTACAAGCTGATTAAAGGAACTCACTTCGTACGCTACAGCGAAATGAAGTTCCCGCAGAACGATAAGAAATAAGTTTCCTCCCTTCCTTGCTAAGCCCTCTCAACCGAGAGGGCTTTTTCAATTCCATTTCCCTGACAAATCATGCGGATATAAAATTTAACATTTGGATTGATAATTGTTATCGTTTGCATTATCGTTACGCCGCAATCAAAAAAGGCTGACAAATCAGAGGCTGTTCCGGCTTTCTGGGATGATCACCTGCATAAAAAATAAGTCCACCGCGATGCTGCCGTACGC (double strand) [me-cir promoter]”: binds ([1]; methylation had no effect, Fur 20 nM, N6-methyladenine at GATC sites (Dam)).
“CTGAAACGAACTGCTCATGGCTCTCTCCTGTGAAACCTGCATCTCAGGGGTTCCATCACCGCAGATGCCTCCCCTTGTGCACTGATTTAATTTTGATCATTATAGGACGAAGATCTGAAAAATCTCAATATAACAGATACATCGATCGATATAATGCAAATAATCAGGACTTTATTCTATGGAATGTCGCAAAATAATGAATATTCAAAGCTTATAACCATTGTTAATGTAAAAATACAGAAAATTATTCCACAAAACACTTTTGATACAGCCAGTTAACATAAACACTGTATTTTCTTGATTTCAGTCATTGAAAATCACAATGAGTAAAGTTTCAGCAGCATTGACGTGATTTCTGGAAAGCGGGAAAGATATGGAGGAAGGGCCCAACAAAATGCAATGAAAGAAGGAGTGAGGGGATTTCTAGTAAAAACAGAAGATTAACAAAACACATCAGGAGGCAGAGACTCCTGATTCAGTGCTACCACATGAAAATTTAGTTAACTGTTACCGTTCTGAAATCTATGTCAGAAGATATTCCATTACCGAAAATCAATCAGCGATACAGAGACGATCATGGTGCG (double strand) [sci1 promoter]”: binds [3]; binds ([1]; FeCl3, two shifts).

For at least one entry, the source does not settle the construct or the ends of the probe. For some assays here: At least one verdict was read from the data and is not stated in words by the source. For some assays here: Tags and fusion partners may be left off the protein sequences shown.
